{"source": "paper PMC5033645", "about": "(Nature structural & molecular biology, 2016)", "target": "T1, SUMO-gSV2C: glycosylated human SV2C-L4 (V473-T567) with SUMO, secreted from HEK293 cells (human, UniProt Q496J9 473-567)", "T1 sequence": "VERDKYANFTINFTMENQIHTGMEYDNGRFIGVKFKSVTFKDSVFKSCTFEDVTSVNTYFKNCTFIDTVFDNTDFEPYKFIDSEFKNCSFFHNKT", "assay": "SPR", "data": [{"binder": "BoNT/A1 receptor-binding domain (HCA), wild type (domain or fragment) not shown", "values": [{"measurement": "fold slower association rate of the high affinity component than on bSV2C", "result": "~4", "unit": "fold"}]}]}
